Molecular target: RSVF-multi-4 with all five redesigned site V residues reverted to native
Assay: SPR

RSV90 Fab gave a Kd of 490 nM.
